Anti-infective test results gathered from many reports (values: NIAID ChemDB through PubChem).

Common to all: tests in culture; agent: HIV-1; measure: inhibition

Blank or dashed fields: not listed here. Percent inhibition refers to the dose given; in toxicity tests it is the harm to the cells. Neighbouring rows are from separate reports. Two numbers with a dash give a range or band.

compound,strain,cells,method,setting,dose,result
CC(C)(C)c1csc(NC(=O)NCCc2ccccc2)n1,,MT-4,cytopathic effect / XTT,,100 µg/mL,0%
C[C@H]1CN(C(=O)c2ccccc2)CCN1C(=O)C(=O)c1c[nH]c2cccc(Br)c12,,HeLa + HELA CD4+/CCR5,luciferase,,10 µM,58%
CC(C)[C@H](NC(=O)[C@H](CO)NC(=O)[C@@H](N)CS)C(=O)N[C@H](C(=O)N[C@@H](CS)C(=O)NCC(=O)O)[C@@H](C)O,IIIB,PBMC(PHA STIM.) + PBMC,p24,,0.132 µM,39%
CCCCN1C(=O)[C@@H](Cc2ccccc2)NC1=S,,MT-4,cytopathic effect / XTT,,100 µg/mL,100%
CC(C)[C@H](NC(=O)[C@H](CO)NC(=O)[C@H](CS)NC(=O)CCC(=O)NCCCOCCOCCCN)C(=O)N[C@H](C(=O)N[C@@H](CS)C(=O)NCC(=O)O)[C@@H](C)O,p13,PBMC(PHA STIM.) + PBMC,p24,,0.3 µM,78%
O=C(C(=O)N1CCN(C(=O)c2occ(Cl)c2Cl)CC1)c1c[nH]c2c(F)ccc(F)c12,,HeLa + HELA CD4+/CCR5,luciferase,,10 µM,>98%
CC1(C)[C@@H](O[C@H]2O[C@H](C(=O)O)[C@@H](O)[C@H](O)[C@H]2O[C@@H]2O[C@H](C(=O)O)[C@@H](O)[C@H](O)[C@H]2O)CC[C@]2(C)[C@H]3C(=O)C=C4[C@@H]5C[C@@](C)(C(=O)O)CC[C@]5(C)CC[C@@]4(C)[C@]3(C)CC[C@@H]12,IIIB,MOLT-4,virus yield,6 d,1200 µM,80%
COc1ccc(F)c2c(C(=O)C(=O)N3CCN(C(=O)c4ccc(N)cc4)C[C@H]3C)c[nH]c12,,HeLa + HELA CD4+/CCR5,luciferase,,10 µM,>98%
Cc1ccc(-c2ccc3c(c2)C=C(C(=O)Nc2ccc(C[N+](C)(C)C4CCOCC4)cc2)CCC3)cc1,TB10 CLADE C,PBMC,p24,,1 µM,100%
Cc1cccc2sc(NC(=O)NCCc3ccccc3)nc12,,MT-4,cytopathic effect / XTT,,100 µg/mL,50%
C[C@H]1[C@H](O)[C@@H](C)/C=C/C=C/C=C/C=C/C=C/C=C/C=C/[C@H](O[C@@H]2O[C@H](C)[C@@H](O)[C@H](N)[C@@H]2O)C[C@@H]2O[C@](O)(C[C@@H](O)C[C@@H](O)CC[C@H](O)[C@@H](O)C[C@@H](O)CC(=O)O[C@H]1C)C[C@H](O)[C@H]2C(=O)O,YBF30 GROUP N R5 (NSI),PBMC,p24 / RT activity,,1.4 µM,90%
O=C(C(=O)N1CCN(C(=O)c2ccco2)CC1)c1c[nH]c2c(F)ccc(F)c12,,HeLa + HELA CD4+/CCR5,luciferase,,10 µM,>98%
NS(=O)(=O)c1ccc(NC(=O)NCCc2ccccc2)cc1,,MT-4,cytopathic effect / XTT,,1 µg/mL,0%
CC1CN(C(=O)C(=O)c2c[nH]c3cccc(F)c23)CC(C)N1C(=O)c1ccccc1,,HeLa + HELA CD4+/CCR5,luciferase,,10 µM,97%
COc1ccc(CCNC(=S)Nc2nccs2)cc1OC,,MT-4,cytopathic effect / XTT,,1 µg/mL,4–44%

The first 2 rows once more:

compound,strain,cells,method,setting,dose,result
CC(C)(C)c1csc(NC(=O)NCCc2ccccc2)n1,,MT-4,cytopathic effect / XTT,,100 µg/mL,0%
C[C@H]1CN(C(=O)c2ccccc2)CCN1C(=O)C(=O)c1c[nH]c2cccc(Br)c12,,HeLa + HELA CD4+/CCR5,luciferase,,10 µM,58%